Values of other authors in article PMC11768433 (Viruses, 2024).

Test system: T-20 resistant HIV-1 NL4-3 mutants
Parameters: method as in Ref.30089693
Details: T-20 resistant NL4-3 mutants, TZM-bl, range over strains; ref Ref.30089693

Sequence | IC50 [nM]
YTSLIEELIKKSEEQQKKNEEELKKLEX [DRAVPe00783] | 0.06 to 136
LEANIEELLKKAEEQQKKNEEELKKLEX [DRAVPe00784] | 0.02 to 12.1
IEELLKKAEEQQKKNEEELKKLEX [DRAVPe00660] | 0.15 to 88.6
WEQKIEELLKKAEEQQKKNEEELKKLEX [DRAVPe00785] | 0.01 to 1.86
